Anti-infective test results gathered from many reports (values: NIAID ChemDB through PubChem).

Shared fields: growth or infection tests; organism: HIV-1; cells: MT-4; measure: EC50

a–b is a range or a potency band. Rows are shuffled and stem from different studies. ECn is the concentration giving n% inhibition of infection, replication or growth. Blank or dashed fields: not listed here.

SMILES	strain or isolate	changes	read by	result
Cc1ccccc1C(C)c1c(C)c(=O)[nH]c(=O)n1COCc1ccccc1	IIIB	K103N	MTT	84.13 µM
CCCc1c(OCc2ccccc2)c2cc(Cl)ccc2[nH]c1=O	-	-	-	1.48 µM
C=C(c1cc(OC)cc(OC)c1)c1c(C)c(=O)[nH]c(=O)n1COCc1ccccc1	IIIB	K103N	MTT	34.96 µM
Cc1cn([C@H]2C=C[C@@H](CO)O2)c(=O)[nH]c1=O	RD 02-RT-210W C215Y Recombinant	-	cytopathic effect / MTT	0.7 µM
COc1cccc(OC)c1C1SCC(=O)N1c1cc(C)ccn1	IIIB	-	cytopathic effect	3.33 µM
C=C(c1ccccc1)c1c(CC)c(=O)[nH]c(=O)n1COC/C=C/c1ccccc1	IIIB	-	cytopathic effect / MTT	0.32 µM
CCN1C/C(=C\c2cc(O)c(O)c(O)c2)C(=O)/C(=C/c2cc(O)c(O)c(O)c2)C1	-	-	cytopathic effect / MTT	≥40 µM
CN(C)CCCCN1c2ccccc2C2C1C=C(C#N)C(=O)N2c1ccc([N+](=O)[O-])cc1	LAI	-	cytopathic effect / MTT	<1 µM
C=CCOCn1c(C(=C)c2cc(C)cc(C)c2)c(CC)c(=O)[nH]c1=O	IIIB	-	cytopathic effect / MTT	0.03 µM
Cc1cc(C#N)cc(C)c1Oc1nc(NC2CCN(Cc3ccc(S(N)(=O)=O)cc3)CC2F)nc2ccsc12	IIIB	NNRTI-resistant (RT E138K)	MTT	0.0174 µM
COc1cccc(F)c1C1SCC(=O)N1c1cc(C)ccn1	IIIB	-	cytopathic effect	0.879 µM
CCc1c(OC#CC2CC2)c2cc(F)ccc2[nH]c1=O	-	RT-K103N	-	0.4 µM
COc1ccc(CNC2=CS(=O)(=O)OC2(C)C)c(OC)c1	IIIB	-	cytopathic effect / MTT	>125 µg/mL
CC(=O)OCC1=C[C@@H]2C(=O)[C@]3(C=C(C)[C@H](OC(C)=O)[C@@]3(O)[C@@H]1OC(C)=O)[C@H](C)C[C@@H]1[C@H]2C1(C)C	A018A	-	cytopathic effect / MTT	0.65 µM
CCc1c(Cc2ccccc2)n(COCCCc2ccccc2)c(=O)[nH]c1=O	EFVR	K103R/V179D/P225H	MTT	>23 µM
O=C1/C(=C/c2cc(O)c(O)c(O)c2)CC(C(=O)O)C/C1=C\c1cc(O)c(O)c(O)c1	-	-	cytopathic effect / MTT	4 µM
CCc1c(Cc2ccccc2)n(COCCc2ccccc2)c(=O)[nH]c1=O	A17	K103N/Y181C	MTT	>43 µM
CCc1c(Cc2cc(C)cc(C)c2)n(COCC#Cc2ccccc2[N+](=O)[O-])c(=O)[nH]c1=O	IIIB	EFV-resistant (K103R V179D P225H)	MTT	>10 µM
CCc1c(Cc2cc(C)cc(C)c2)n(Cc2ccc(I)cc2)c(=O)[nH]c1=O	Clinical isolates	Y181C	MTT	3 µM
CC1=C(N)C(C)(C)N(Cc2ccccc2)S1(=O)=O	IIIB	-	cytopathic effect / MTT	>125 µg/mL
O=C1Nc2ccc(Cl)cc2[C@@](C#CC2CC2)(C(F)(F)F)O1	EFVR	K103R/V179D/P225H	MTT	14 µM
COc1ccc(C(C)c2c(C(C)C)c(=O)[nH]c(=O)n2COCc2ccccc2)cc1	IIIB	-	MTT	>33.28 µM
Cc1cc(C)nc(N2C(=O)CSC2c2c(F)cccc2F)c1	IIIB	-	cytopathic effect	0.09 µM
CC(C)CN(C[C@@H](O)[C@H](Cc1ccccc1)NC(=O)O[C@H]1CO[C@H]2OCC[C@H]21)S(=O)(=O)c1ccc2c(c1)/C(=C/c1ccccc1O)C(=O)N2	LAI	-	cytopathic effect / MTT	0.071 µM
Cc1cc(/C=C/C#N)cc(C)c1Oc1nc(NC2CCN(Cc3cccc(C#N)c3)CC2)nc2ccsc12	IIIB	NNRTI-resistant (RT E138K)	MTT	0.0279 µM
CC1(C)C(N)=C(c2ccccc2)S(=O)(=O)N1Cc1cccc(Cl)c1	IIIB	-	cytopathic effect / MTT	>125 µg/mL
CCc1c(Cc2cc(C)cc(C)c2)n(COCC#Cc2ccc(NC(=O)CBr)cc2)c(=O)[nH]c1=O	IIIB	Y181C	MTT	1.3 µM
COC(=O)c1ccc(CN2CCC(Nc3nc(Oc4c(C)cc(C#N)cc4C)c4ccsc4n3)CC2)cc1	IIIB	NNRTI-resistant (RT F227L V106A)	MTT	0.263 µM
CCCc1c(SC2CCCC2)c2cc(F)ccc2[nH]c1=O	-	-	-	0.045 µM
Cc1ccccc1C(O)(c1c(C)c(=O)[nH]c(=O)n1COCc1ccccc1)C(C)C	IIIB	-	MTT	>53.83 µM
CN1c2ccccc2C2C1C=C(/C(N)=N/O)C(=O)N2c1ccc([N+](=O)[O-])cc1	LAI	-	cytopathic effect / MTT	1–32 µM
CC(C)c1c(C(C)c2ccc(F)cc2)n(COCc2ccccc2)c(=O)[nH]c1=O	IIIB	-	MTT	3.91 µM
CCCc1c(SCC2CCC2)c2cc(Cl)ccc2[nH]c1=O	-	-	-	0.036 µM
C#CCOCn1c(Cc2ccccc2)c(CF)c(=O)[nH]c1=O	Clinical isolates	Y181C	MTT	>100 µM
Cc1noc(C)c1-c1ccc(N2C(=O)C(C#N)=CC3C2c2ccccc2N3C)cc1	LAI	-	cytopathic effect / MTT	1–32 µM
O=C1C(=Cc2cc(O)c(O)c(O)c2)C(=O)c2ccccc21	-	-	cytopathic effect / MTT	>19 µM
Cc1ccc(/C=C2\C(=O)Nc3ccc(S(=O)(=O)N(CC(C)C)C[C@@H](O)[C@H](Cc4ccccc4)NC(=O)O[C@H]4CO[C@H]5OCC[C@H]54)cc32)o1	F	PR-L10F M46I M71V I84V	cytopathic effect / MTT	0.039 µM
Cc1cc(/C=C/C#N)cc(C)c1Oc1nc(NC2CCN(Cc3cccc(C(N)=O)c3)CC2)nc2ccsc12	IIIB	NNRTI-resistant (RT Y181C)	MTT	0.00628 µM
CCc1c(Cc2cc(C)cc(C)c2)n(COCCc2ccccc2)c(=O)[nH]c1=O	A17	K103N/Y181C	MTT	>41 µM
CSc1cc(N)nc(S[C@@H](C)c2cc3c(C)coc3cn2)n1	IIIB	-	p24	<0.004 µM
CCOCn1c(Cc2ccc(C)cc2)c(CC)c(=O)[nH]c1=O	N119	Y181C	MTT	>100 µM
CC(C)CN(C[C@@H](O)[C@H](Cc1ccccc1)NC(=O)O[C@H]1CO[C@H]2OCC[C@H]21)S(=O)(=O)c1ccc2c(c1)/C(=C/c1cccn1C)C(=O)N2	LAI	-	cytopathic effect / MTT	0.015 µM
CCCc1c(OC2CCCC2)c2cc(C)ccc2[nH]c1=O	Nevirapine-resistant (RT Y181C)	RT-Y181C	-	4.3 µM
Cc1cn([C@H]2C[C@H](N=[N+]=[N-])[C@@H](CO)O2)c(=O)[nH]c1=O	Clinical isolate	-	MTT	0.0098 µg/mL
CCC(C)c1c(OC2CCCC2)c2cc(Cl)ccc2[nH]c1=O	-	-	-	0.01 µM
CC1(C)OS(=O)(=O)C=C1NCc1ccccc1	IIIB	-	cytopathic effect / MTT	>125 µg/mL
Cc1cc(/C=C/C#N)cc(C)c1Oc1nc(NC2CCN(Cc3cccnc3)CC2)nc2ccsc12	IIIB	NNRTI-resistant (RT F227L V106A)	MTT	0.00582 µM
COc1cccc(F)c1C1SCC(=O)N1c1cccc(C)n1	IIIB	-	cytopathic effect	0.288 µM
CCc1c(Cc2cc(C)cc(C)c2)n(COCC#Cc2ccc(NC(=O)C(F)(F)F)cc2)c(=O)[nH]c1=O	IIIB	EFV-resistant (K103R V179D P225H)	MTT	9 µM
CC(C)c1c(OC#CC2CC2)c2cc(Cl)ccc2[nH]c1=O	-	-	-	0.02 µM
CC(C)CN(C[C@@H](O)[C@H](Cc1ccccc1)NC(=O)O[C@H]1CO[C@H]2OCC[C@H]21)S(=O)(=O)c1ccc2c(c1)/C(=C/c1cc3ccccc3[nH]1)C(=O)N2	LAI	-	cytopathic effect / MTT	0.055 µM
C=C(c1cc(C)cc(C)c1)c1c(CC)c(=O)[nH]c(=O)n1COCC	IIIB	RT-K103N Y181C	cytopathic effect / MTT	29 µM
CN1c2ccccc2C2C1C=CC(=O)N2c1ccc(-c2noc(-c3cccc([N+](=O)[O-])c3)n2)cc1	LAI	-	cytopathic effect / MTT	>32 µM
O=C(O)CC1C/C(=C\c2ccc(O)c(O)c2)C(=O)/C(=C/c2ccc(O)c(O)c2)C1	-	-	cytopathic effect / MTT	>41 µM
Cc1cc(/C=C/C#N)cc(C)c1Oc1nc(NC2CCN(Cc3ccccc3C#N)CC2)nc2ccsc12	IIIB	NNRTI-resistant (RT K103N)	MTT	0.0175 µM
C=CCOCn1c(Cc2ccccc2)c(CO)c(=O)[nH]c1=O	IIIB	EFV:K103R+V179D+P225H	MTT	>100 µM
CCCc1c(SCC2CCC2)c2cc(F)ccc2[nH]c1=O	Nevirapine-resistant (RT Y181C)	RT-Y181C	-	0.046 µM
CCc1c(Cc2cc(C)cc(C)c2)n(COCCO)c(=O)[nH]c1=O	Clinical isolates	Y181C	MTT	3 µM
COc1cccc(F)c1C1SCC(=O)N1c1cc(C)cc(C)n1	IIIB	-	cytopathic effect	0.202 µM
C=C(c1ccc(OC)cc1)c1c(C)c(=O)[nH]c(=O)n1COCc1ccccc1	IIIB	-	MTT	>131 µM
C#CCOCn1c(Cc2ccccc2)c(CO)c(=O)[nH]c1=O	IIIB	K103N + Y181C	MTT	>100 µM
Cc1c(C(C)c2ccc(F)cc2)n(COCc2ccccc2)c(=O)[nH]c1=O	IIIB	-	MTT	>339.3 µM
CCc1c(Cc2ccccc2C)n(COCC#Cc2ccccc2)c(=O)[nH]c1=O	IIIB	WT	MTT	0.4 µM
C=C(c1cc(C)cc(C)c1)c1c(CC)c(=O)[nH]c(=O)n1COC/C(C)=C/c1ccccc1	IIIB	-	cytopathic effect / MTT	0.03 µM
CCC(c1ccc(C)cc1)c1c(C)c(=O)[nH]c(=O)n1COCc1ccccc1	IIIB	-	MTT	>43.7 µM

7 of the rows above, restated:

SMILES	strain or isolate	changes	read by	result
Cc1ccccc1C(O)(c1c(C)c(=O)[nH]c(=O)n1COCc1ccccc1)C(C)C	IIIB	-	MTT	>53.83 µM
C=CCOCn1c(Cc2ccccc2)c(CO)c(=O)[nH]c1=O	IIIB	EFV:K103R+V179D+P225H	MTT	>100 µM
CN1c2ccccc2C2C1C=CC(=O)N2c1ccc(-c2noc(-c3cccc([N+](=O)[O-])c3)n2)cc1	LAI	-	cytopathic effect / MTT	>32 µM
Cc1cc(/C=C/C#N)cc(C)c1Oc1nc(NC2CCN(Cc3cccc(C#N)c3)CC2)nc2ccsc12	IIIB	NNRTI-resistant (RT E138K)	MTT	0.0279 µM
O=C1Nc2ccc(Cl)cc2[C@@](C#CC2CC2)(C(F)(F)F)O1	EFVR	K103R/V179D/P225H	MTT	14 µM
CC1=C(N)C(C)(C)N(Cc2ccccc2)S1(=O)=O	IIIB	-	cytopathic effect / MTT	>125 µg/mL
CC1(C)OS(=O)(=O)C=C1NCc1ccccc1	IIIB	-	cytopathic effect / MTT	>125 µg/mL